# Record: PubChem BioAssay AID624099 (ICCB-Longwood, 2012)
# Test: 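Knock-downs relieving repression by E2 of an HPV18 LCR luciferase reporter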 (primary screen)
# System: human C33A cervical carcinoma cells (HPV-negative) stably expressing BPV1 E2 and an HPV18 LCR luciferase reporter
# Reagents: siRNA pool against human genes, 40 nM
# Timing: 72 h
# Detection: 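Per-well luciferase luminescence, z-scored on each plate against the plate mean and SD with control wells left out, then averaged across three replicate plates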
# Scale: mean z-score and z-score: higher = stronger reporter signal, weaker E2 silencing
# Active means: 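Hit if mean z-score reaches 2 and two or more of three replicate z-scores also reach 2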
# Shown is one part, drawn at random, of about 21,000 reagents. In the full data, 497 (2.4%) got an active call. 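Higher z means weaker E2 silencing; only reporter increases were scored, and knock-downs that hurt cell survival may mask genuine repressor factors.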 The numbers tell different reagents against one gene apart.
gene symbol,reagent,mean z-score,"z-score, replicate A","z-score, replicate B","z-score, replicate C",call
DNAJB6P1 (DNAJB6 pseudogene 1),1,0.95,0.82,1.04,0.99,inactive
SEMA3E (semaphorin 3E),1,0.92,0.92,0.75,1.08,inactive
GPR68 (G protein-coupled receptor 68),1,0.47,0.32,0.68,0.4,inactive
DCAF8L2 (DDB1 and CUL4 associated factor 8 like 2),1,-0.9,-1.09,-1.05,-0.56,inactive
DCAF8L2 (DDB1 and CUL4 associated factor 8 like 2),2,0.95,0.78,1.24,0.83,inactive
SYNPO (synaptopodin),1,0.31,-0.02,0.92,0.03,inactive
SLC35F5,1,0.85,1.11,0.37,1.07,inactive
PINLYP (phospholipase A2 inhibitor and LY6/PLAUR domain containing),1,1.52,1.49,1.48,1.6,inactive
SPRR1B (small proline rich protein 1B),1,0.37,0.29,0.34,0.46,inactive
VAMP7 (vesicle associated membrane protein 7),1,-0.67,-0.5,-0.81,-0.7,inactive
TEAD4 (TEA domain transcription factor 4),1,0.9,0.81,1.23,0.67,inactive
KCNA2 (potassium voltage-gated channel subfamily A member 2),1,-0.43,-0.39,-0.32,-0.59,inactive
SNHG17 (small nucleolar RNA host gene 17),1,0.9,0.96,0.39,1.36,inactive
CFAP157 (cilia and flagella associated protein 157),1,-0.61,-0.82,-0.88,-0.13,inactive
PTAR1 (protein prenyltransferase alpha subunit repeat containing 1),1,0.27,0.37,0.45,0,inactive
GALP (galanin like peptide),1,0.32,0.61,0.22,0.13,inactive
DIPK2B (divergent protein kinase domain 2B),1,1.32,1.21,1.13,1.62,inactive
LOC389347 (retired record),1,0.03,-0.22,0.18,0.14,inactive
AIRE (autoimmune regulator),1,-0.31,-0.09,-0.61,-0.24,inactive
PLEKHF1 (pleckstrin homology and FYVE domain containing 1),1,-0.42,-0.43,-0.32,-0.52,inactive
SBF2 (SET binding factor 2),1,-0.73,-0.7,-0.79,-0.7,inactive
LOC388170 (retired record),1,0.26,0.11,-0.42,1.08,inactive
ZNF347 (zinc finger protein 347),1,-0.19,-0.21,-0.28,-0.06,inactive

2 successive reagents from above, quoted:
gene symbol,reagent,mean z-score,"z-score, replicate A","z-score, replicate B","z-score, replicate C",call
LOC388170 (retired record),1,0.26,0.11,-0.42,1.08,inactive
ZNF347 (zinc finger protein 347),1,-0.19,-0.21,-0.28,-0.06,inactive
